Source: article PMC12406196, “Anticoronavirus Activity of Uridine Glycoconjugates Containing a 1,2,3-Triazole Moiety” (Journal of Medicinal Chemistry, 2025)
Where “and” joins values, the source holds several entries; their conditions need not be identical. Identical values can stand only once.

Tests used:
Format in all cases: cell-based
[1] = system: murine hepatitis virus strain A59 (MHV); test: MHV titer in medium of infected LR7 cells, plaque assay; conditions: CC50/IC50 ratio
Method: LR7 or LLC-Mk2 cells were infected at a MOI of 0.01 with MHV and HCoV-NL63, respectively, and treated with selected compounds at a concentration ranging from 0 to 50 μM. Culture supernatants were collected 1 day (MHV) or 4 days (HCoV-NL63) after infection. Virus titer was determined by plaque assay.
(§1) The half-maximum inhibitory concentration value (IC50) indicating the concentration of compound needed to reduce virus titer by 50% in comparison to the control, was evaluated by GraphPad software (version 5.01, GraphPad Software, San Diego, CA).

[2] = system: human coronavirus strain NL63 (HCoV-NL63); test: HCoV-NL63 titer in medium of infected LLC-Mk2 cells, foci-forming assay; conditions: CC50/IC50 ratio
Method: LR7 or LLC-Mk2 cells were infected at a MOI of 0.01 with MHV and HCoV-NL63, respectively, and treated with selected compounds at a concentration ranging from 0 to 50 μM. Culture supernatants were collected 1 day (MHV) or 4 days (HCoV-NL63) after infection. […]
as §1

SARS-CoV-2 = SARS-CoV-2 infectivity in supernatants of infected Vero cells, plaque assay
Method: Vero cells were seeded in appropriate plates and allowed to reach an approximately 90% confluence. For infection, 200 μL of viral suspension containing 10^5 pfu (SARS-CoV-2 strain SARS-CoV-2/human/Czech Republic/951/2020) was added to each well and incubated for 2 h at 37 °C to allow virus adsorption. After the incubation, the viral medium was removed, and the wells were washed gently with phosphate-buffered saline (PBS). Test compounds were prepared in serial dilutions to final concentrations of 50, 25, 12.5, 6.25, 3.125, and 0 μM in the medium (DMEM containing 2% FBS). The compounds were added in quadruplicate to the infected cells. The plates were then incubated for 48 h at 37 °C. Following the 48 h treatment period, the supernatants were removed, and plaque assays in Vero E6 cells were performed to assess viral titers. Cells were fixed and stained 4 days after infection to visualize plaques, as described previously.
as §1

SMILES | SI (MHV) [1] | SI (HCoV-NL63) [2] | SI (SARS-CoV-2) (SARS-CoV-2)
CC(=O)OC[C@H]1O[C@@H](OCc2cn(C[C@H]3O[C@@H](n4ccc(=O)[nH]c4=O)[C@H](O[Si](C)(C)C(C)(C)C)[C@@H]3O[Si](C)(C)C(C)(C)C)nn2)[C@H](OC(C)=O)[C@@H](OC(C)=O)[C@H]1OC(C)=O [Compound 15, 2′,3′-di-O-tert-Butyldimethylsilyl-5′-deoxy-5′-[4-(2″,3″,4″,6″-tetra-O-acetyl-β-D-galactopyranosyloxymethyl)-1,2-3-triazol-1-yl]-uridine] | 17.7 | 7.3 | >3.6
CC(=O)OC[C@H]1O[C@@H](SCc2cn(C[C@H]3O[C@@H](n4ccc(=O)[nH]c4=O)[C@H](O[Si](C)(C)C(C)(C)C)[C@@H]3O[Si](C)(C)C(C)(C)C)nn2)[C@H](OC(C)=O)[C@@H](OC(C)=O)[C@@H]1OC(C)=O [Compound 20, 2′,3′-di-O-tert-Butyldimethylsilyl-5′-deoxy-5′-[4-(2″,3″,4″,6″-tetra-O-acetyl-β-D-glucopyranosylthiomethyl)-1,2-3-triazol-1-yl]-uridine] | >8.8 | >18.2 | >6.2
CC(=O)OC[C@H]1O[C@@H](SCc2cn(C[C@H]3O[C@@H](n4ccc(=O)[nH]c4=O)[C@H](O[Si](C)(C)C(C)(C)C)[C@@H]3O[Si](C)(C)C(C)(C)C)nn2)[C@H](OC(C)=O)[C@@H](OC(C)=O)[C@H]1OC(C)=O [Compound 21, 2′,3′-di-O-tert-Butyldimethylsilyl-5′-deoxy-5′-[4-(2″,3″,4″,6″-tetra-O-acetyl-β-D-galactopyranosylthiomethyl)-1,2-3-triazol-1-yl]-uridine] | 14.5 | 8.2 | >5.3
CC(=O)OC[C@H]1O[C@@H](SCn2cc(COC[C@H]3O[C@@H](n4ccc(=O)[nH]c4=O)[C@H](O[Si](C)(C)C(C)(C)C)[C@@H]3O[Si](C)(C)C(C)(C)C)nn2)[C@H](OC(C)=O)[C@@H](OC(C)=O)[C@@H]1OC(C)=O [Compound 24, 2′,3′-di-O-tert-Butyldimethylsilyl-5′-O-[(1-(2″,3″,4″,6″-tetra-O-acetyl-β-D-glucopyranosylthiomethyl)-1,2-3-triazol-4-yl)-methyl]-uridine] | >27.0 | 19.05 and 19.0 | >5.3
